The numbers were not newly measured in paper PMC4179598, which cites them from elsewhere.

This data set concerns the target His37 (UniProt position 37, IIGILHLILWI). Nature of the data set: NMR. Conditions: Membrane-reconstituted M2TM tetramer.

Turning to “Matrix protein 2 transmembrane peptide (M2TM, residues 22-46) (Influenza A virus)”, the pKa was 8.2.

In general, pKa refers to the pH at which an ionisable group is half protonated.
